Test results reported in PMC5798227.

Target: DS-SOSIP.664 trimer (BG505) (HIV-1 BG505 (clade A))
Assay: cryo-EM structure

4-domain soluble CD4 (cryo-EM sample) (from UniProt P01730) (receptor)
stoichiometry N (CD4 per trimer): 1
